Measurements taken from paper PMC6835510, “Magnificamide, a β-Defensin-Like Peptide from the Mucus of the Sea Anemone Heteractis magnifica, Is a Strong Inhibitor of Mammalian α-Amylases” (Marine Drugs, 2019).
Bridge positions count the residues as written; N and C are the ends. Ends that are not written are not given here.

Experiment: Circular dichroism spectroscopy, secondary structure
Assay type: physicochemical
Details: CD, 50 µg/mL, 0.01 M sodium phosphate buffer pH 7.0, 25 °C; for α-Helix III / β-Structure III: III appears to be the total of I and II; for Unordered Structure / α-Helix I / α-Helix II / β-Structure I / β-Structure II / β-Turn: Provencher–Glöckner method

| Sequence | α-Helix III [percentages] | β-Structure III [percentages] | Unordered Structure [percentages] | α-Helix I [percentages] | α-Helix II [percentages] | β-Structure I [percentages] | β-Structure II [percentages] | β-Turn [percentages] | α-Helix III (listed as r-Magnificamide) [percentages] | β-Structure III (listed as r-Magnificamide) [percentages] | Unordered Structure (listed as r-Magnificamide) [percentages] | α-Helix I (listed as r-Magnificamide) [percentages] | α-Helix II (listed as r-Magnificamide) [percentages] | β-Structure I (listed as r-Magnificamide) [percentages] | β-Structure II (listed as r-Magnificamide) [percentages] | β-Turn (listed as r-Magnificamide) [percentages] |
| --- | --- | --- | --- | --- | --- | --- | --- | --- | --- | --- | --- | --- | --- | --- | --- | --- |
| SEGTSCYIYHGVYGICKAKCAEDMKAMAGMGVCEGDLCCYKTPW (disulfide 6-38, 16-33, 20-39) [Magnificamide] | 1.7 | 35.1 | 38.9 | 0.0 | 1.7 | 21.4 | 13.7 | 24.3 |  |  |  |  |  |  |  |  |
| SEGTSCYIYHGVYGICKAKCAEDMKAMAGMGVCEGDLCCYKTPW (disulfide 6-38, 16-33, 20-39) [r-magnificamide] |  |  |  |  |  |  |  |  | 1.2 | 32.9 | 43.7 | 0.1 | 1.1 | 18.2 | 14.7 | 22.2 |
